# Kdimer by position in the HIV-1 leader RNA

Source: Ye et al. 2022 (doi:10.1038/s41594-022-00746-2), supplementary data.

RNA: 5' end of the HIV-1 NL4-3 genome, made in vitro. Positions 1-437 read:
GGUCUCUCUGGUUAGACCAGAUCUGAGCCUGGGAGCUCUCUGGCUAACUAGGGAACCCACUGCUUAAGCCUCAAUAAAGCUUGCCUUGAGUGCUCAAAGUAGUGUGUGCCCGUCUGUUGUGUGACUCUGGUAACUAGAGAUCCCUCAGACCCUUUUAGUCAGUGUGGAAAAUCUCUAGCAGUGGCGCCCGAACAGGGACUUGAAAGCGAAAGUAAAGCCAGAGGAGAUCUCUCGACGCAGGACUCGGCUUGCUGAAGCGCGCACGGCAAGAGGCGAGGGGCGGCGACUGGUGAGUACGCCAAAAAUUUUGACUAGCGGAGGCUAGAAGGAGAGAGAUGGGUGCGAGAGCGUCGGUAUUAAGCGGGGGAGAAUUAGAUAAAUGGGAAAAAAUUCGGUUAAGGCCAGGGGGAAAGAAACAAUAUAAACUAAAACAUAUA

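Randomly mutated transcripts starting with one, two or three G (1G, 2G, 3G), capped or uncapped, were folded for 30 min at 37 °C. High salt was 300 mM KCl and 5 mM MgCl2, low salt 40 mM KCl and 0.1 mM MgCl2; monomer and dimer were parted on a native gel. Mutation frequencies in the two bands give Kdimer.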

Values are log2 Kdimer, the median over the changes at each position: higher means that changes there hinder dimer formation, below 0 that they favour it. One numbering serves 1G, 2G and 3G. A position is written with its base.

* G285 (domain SL2) = 1G capped high-salt 0.97; 1G uncapped low-salt 1.17
* A286 (domain SL2) = 1G capped high-salt 0.45; 1G uncapped low-salt 0.35
* C287 (domain SL2) = 1G capped high-salt -0.32; 1G uncapped low-salt -0.61
* U288 (domain SL2) = 1G capped high-salt -0.25; 1G uncapped low-salt 0.03
* G289 (domain SL2) = 1G capped high-salt 0.72; 1G uncapped low-salt 0.14
* G290 (domain SL2) = 1G capped high-salt 0.38; 1G uncapped low-salt 0.18
* U291 (domain SL2) = 1G capped high-salt -0.20; 1G uncapped low-salt -0.29
* G292 (domain SL2) = 1G capped high-salt -0.03; 1G uncapped low-salt -0.12
* A293 (domain SL2) = 1G capped high-salt -0.23; 1G uncapped low-salt -0.28
* G294 (domain SL2) = 1G capped high-salt -0.48; 1G uncapped low-salt -0.70
* U295 (domain SL2) = 1G capped high-salt -0.29; 1G uncapped low-salt -0.74
* A296 (domain SL2) = 1G capped high-salt 0.86; 1G uncapped low-salt 0.14
* C297 (domain SL2) = 1G capped high-salt -0.25; 1G uncapped low-salt -0.04
* G298 (domain SL2) = 1G capped high-salt -0.64; 1G uncapped low-salt -0.53
* C299 (domain SL2) = 1G capped high-salt -0.38; 1G uncapped low-salt -0.52
* C300 = 1G capped high-salt -0.42; 1G uncapped low-salt -0.47
* A301 = 1G capped high-salt 0.29; 1G uncapped low-salt 0.32
* A302 = 1G capped high-salt -0.08; 1G uncapped low-salt -0.21
* A303 = 1G capped high-salt -0.05; 1G uncapped low-salt 0.17
* A304 = 1G capped high-salt 0.04; 1G uncapped low-salt 0.11
* A305 = 1G capped high-salt -0.15; 1G uncapped low-salt -0.18
* U306 = 1G capped high-salt 0.02; 1G uncapped low-salt -0.02
* U307 = 1G capped high-salt 0.12; 1G uncapped low-salt 0.02
* U308 = 1G capped high-salt 0.14; 1G uncapped low-salt -0.04
* U309 = 1G capped high-salt 0.13; 1G uncapped low-salt 0.05

The opening 3 entries, copied out:

* G285 (domain SL2) -> 1G capped high-salt 0.97; 1G uncapped low-salt 1.17
* A286 (domain SL2) -> 1G capped high-salt 0.45; 1G uncapped low-salt 0.35
* C287 (domain SL2) -> 1G capped high-salt -0.32; 1G uncapped low-salt -0.61